Pooled drug test results. Numbers come from NIAID ChemDB, via PubChem.

Shared fields: tests in culture; species: Herpes simplex virus 1; read by: cytopathic effect; read-out: EC50

ECn: concentration that inhibits the pathogen or its effect by n%. Blank or dashed fields: not listed here. Rows are shuffled and stem from different studies.

| compound | cell line | mutations | strain | result |
|---|---|---|---|---|
| COC(c1cn([C@H]2C[C@H](O)[C@@H](CO)O2)c(=O)[nH]c1=O)C(Cl)I | HFF | - | E-377 | >107 µM |
| O=c1[nH]c(=O)n([C@H]2C[C@H](O)[C@@H](COP(=O)(O)O)O2)cc1/C=C/c1cccc([N+](=O)[O-])c1 | PRK | - | F | >100 µg/mL |
| C[C@H]1[C@H](O)[C@@H](CO)O[C@H]1n1cc(Br)c(N)nc1=O | RPMI8226 | - | KOS | 6.2 µg/mL |
| CCc1cn([C@H]2C[C@H](O)[C@@H](CO)O2)c(N)nc1=O | PRK | - | McIntyre | >400 µg/mL |
| C[C@H]1[C@H](O)[C@@H](CO)O[C@H]1n1cc(Cl)c(N)nc1=O | RPMI8226 | - | KOS | >100 µg/mL |
| CC1(C)[C@@H](CCO)C[C@H]1n1cnc2c(=O)[nH]cnc21 | E6SM | - | TK-/B2006 | >400 µg/mL |
| Nc1nc(N)c2ncn([C@@H]3S[C@H](CO)[C@@H](O)[C@@H]3F)c2n1 | - | - | VR | 0.0041 µg/mL |
| CCc1cn([C@H]2C[C@H](O)[C@@H](CO)O2)c(=O)[nH]c1=O | BSC-1 | - | KOS | 3.9 µg/mL |
| O=c1[nH]c(=O)n([C@H]2C[C@H](O)[C@@H](CO)O2)cc1/C=C/Br | PRK | - | McIntyre | 0.017 µg/mL |
| CCc1cn([C@H]2C[C@H](O)[C@@H](COP(=O)(O)O)O2)c(=O)[nH]c1=O | BSC-1 | - | KOS | 4.1 µg/mL |
| NC(=O)CSc1ncnc2c1cnn2CCCCO | E6SM | - | B2006 (TK-) | >400 µg/mL |
| O=c1[nH]c(=O)n([C@H]2C[C@H](O)[C@@H](CO)O2)cc1C(O)C(Br)Br | HFF | - | E-377 | 3.9 µM |
| Nc1nc(=O)n([C@H]2C[C@H](O)[C@@H](CO)O2)cc1/C=C/Cl | PRK | - | KOS | 0.07 µg/mL |
| [N-]=[N+]=Nc1cccc(/C=C/c2cn([C@H]3C[C@H](O)[C@@H](COP(=O)(O)O)O3)c(=O)[nH]c2=O)c1 | PRK | - | F | >200 µg/mL |
| Cc1cn(C2CC(O[N+](=O)[O-])C(CO)O2)c(=O)[nH]c1=O | E6SM | - | KOS | >400 µg/mL |
| Nc1ccn([C@@H]2OC[C@H](CO)[C@H]2O)c(=O)n1 | E6SM | - | KOS TK- acyclovir-resistant | 240 µg/mL |
| O=c1[nH]c(=O)n([C@@H]2S[C@H](CO)[C@@H](O)[C@@H]2F)cc1/C=C/Br | - | - | VR | 0.32 µg/mL |
| Nc1nc2c(ncn2COCCO)c(=O)[nH]1 | PRK | - | F | 0.04 µg/mL |
| Nc1ncnc2c1ncn2[C@@H]1O[C@H](COP(=O)(O)O[C@@H]2[C@H](O)[C@@H](COP(=O)(O)OP(=O)(O)OC[C@@H]3OC(O)[C@H](O)[C@H](O)[C@H]3O)O[C@H]2n2cnc3c(N)ncnc32)[C@@H](O)[C@H]1O | PRK | - | - | >200 µg/mL |
| O=C(O)C(O[C@@H]1C=C[C@H](n2cc(F)c(=O)[nH]c2=O)C1)P(=O)(O)O | HEL | - | KOS | >250 µM |
| O=c1[nH]c(=O)n([C@H]2C[C@H](O)[C@@H](CO)O2)cc1C(O)C(Cl)Cl | HFF | - | E-377 | >73.5 µM |
| [N-]=[N+]=NCc1cn([C@H]2C[C@H](O)[C@@H](CO)O2)c(=O)[nH]c1=O | PRK | - | F | 2 µg/mL |
| CC1(C)[C@@H](CCO)C[C@H]1n1nnc2c(N)nc(N)nc21 | E6SM | - | KOS | >400 µg/mL |
| O=c1[nH]c(=O)n([C@H]2C[C@H](O)[C@@H](CO)O2)cc1I | PRK | - | VDX348 | 0.1 µg/mL |
| O=c1[nH]c(=O)n([C@H]2S[C@H](CO)[C@@H](O)[C@@H]2F)cc1/C=C/Br | - | - | VR | >27 µg/mL |
| Cc1cn([C@@H]2C[C@H](OC(C(=O)O)P(=O)(O)O)[C@@H](O)[C@H]2O)c(=O)[nH]c1=O | HEL | TK-deficient acyclovir-resistant | KOS | >250 µM |
| O=c1[nH]c(=O)n([C@H]2C[C@H](O)[C@@H](CO)O2)cc1I | Primary rabbit kidney cells | - | KOS | 0.1 µg/mL |
| C=C(N=CC)c1nc(-c2ccc(OC)cc2)n(C2O[C@H](CO)[C@@H](O)[C@H](O)[C@H]2O)n1 | E6SM | - | KOS | 150 µg/mL |
| O=C(C1CC1)N(O)c1ccc(Cl)cc1 | E6SM | - | KOS | >80 µg/mL |
| NC(=O)CSc1ncnc2c1cnn2COCC(O)CO | E6SM | - | B2006 (TK-) | >400 µg/mL |
| OC[C@H]1O[C@@H](c2cc(C(O)CI)c(F)cc2F)C[C@@H]1O | E6SM | - | KOS (TK-) | >16 µg/mL |
| C=C(N=CC)c1nc(-c2ccccc2)n(C2O[C@H](CO)[C@@H](O)[C@H](O)[C@H]2O)n1 | E6SM | - | VMW 1837 | >200 µg/mL |
| C[C@H]1[C@H](O)[C@@H](CO)O[C@H]1n1cc(I)c(N)nc1=O | RPMI8226 | - | KOS | 1.36 µg/mL |
| Cc1cn([C@@H]2OC[C@H](CO)[C@H]2N=[N+]=[N-])c(=O)[nH]c1=O | E6SM | - | KOS | >80 µg/mL |
| Nc1nc(N)c2ncn([C@H]3CO[C@H](CO)[C@@H](O)C3)c2n1 | E6SM | - | KOS | >20 µg/mL |
| COC(CI)c1cc([C@H]2C[C@H](O)[C@@H](CO)O2)c(F)cc1F | E6SM | - | VMW 1837 | >80 µg/mL |
| Nc1ncnc2c1ncn2[C@@H]1O[C@H](COP(=O)([O-])OP(=O)([O-])OC[C@@H]2OC(O)[C@H](O)[C@H](O)[C@H]2O)[C@@H](O)[C@H]1O | PRK | - | - | 15 µg/mL |
| O=c1[nH]c(=O)n([C@H]2S[C@H](CO)[C@@H](O)[C@@H]2F)cc1I | - | - | VR | >27 µg/mL |
| CCc1cn([C@H]2C[C@H](O)[C@@H](CO)O2)c(=O)[nH]c1=O | PRK | - | McIntyre | 0.2 µg/mL |
| Nc1nc(F)nc2c1ncn2[C@@H]1C=C(CO)[C@@H](O)[C@H]1O | E6SM | - | B2006 (TK-) | ≥40 µg/mL |
| Cc1cn([C@H]2CO[C@H](CO)[C@@H](O)C2)c(=O)[nH]c1=O | E6SM | - | KOS | >20 µg/mL |
| CC1(C)[C@@H](CCO)C[C@H]1n1nnc2c(=O)[nH]c(N)nc21 | E6SM | - | TK-/VMW 1837 | 300 µg/mL |
| CC(=O)N[C@H]1C(OCCCCC(=O)NCCCC[C@H](NC(=O)CCCCOC2O[C@H](CO)[C@H](O)[C@H](O)[C@H]2NC(C)=O)C(=O)NCCNP(=O)(O)COCCn2cnc3c(N)ncnc32)O[C@H](CO)[C@H](O)[C@@H]1O | HepG2 | - | - | 0.5 µM |
| O=Cc1cn([C@H]2C[C@H](O)[C@@H](CO)O2)c(=O)[nH]c1=O | PRK | - | B2006 (TK-) | 2 µg/mL |
| CC(C)CS[C@@H]1C[C@H](n2cnc3c(N)ncnc32)[C@@H](O)[C@H]1O | E6SM | - | KOS | >80 µg/mL |
| Cc1cn([C@@H]2O[C@H](COP(=O)(O)O)[C@@H](O)[C@@H]2O)c(=O)[nH]c1=O | HELF | - | VR-3 | 1 µg/mL |
| O=c1ccn(C2CC(O[N+](=O)[O-])C(CO)O2)c(=O)[nH]1 | E6SM | - | KOS ACV-R (TK-) | >400 µg/mL |
| Nc1nc(=O)n([C@H]2C[C@H](O)[C@@H](CO)O2)cc1/C=C\Cl | PRK | - | McIntyre | 2 µg/mL |
| Nc1ccnc(O[C@H]2CO[C@H](CO)[C@@H](O)C2)n1 | E6SM | - | TK-/B2006 | >20 µg/mL |
| CCC(Sc1ncnc2c1cnn2COCC(O)CO)C(N)=O | E6SM | - | VWM1837 (TK-) | >400 µg/mL |
| Nc1ncnc2c1ncn2[C@@H]1S[C@H](CO)[C@@H](O)[C@@H]1F | - | - | VR | 3 µg/mL |
| O=c1[nH]c(=O)n([C@H]2C[C@H](O)[C@@H](CO)O2)cc1/C=C/Br | HEL | - | HU-3 | 0.042 µM |
| O=c1[nH]c(=O)n([C@@H]2S[C@H](CO)[C@@H](O)[C@@H]2F)cc1F | - | - | VR | >27 µg/mL |
| COC(c1cn([C@H]2C[C@H](O)[C@@H](CO)O2)c(=O)[nH]c1=O)C(Cl)Cl | HFF | - | E-377 | 22.9 µM |
| O=C(CCC1CCCCC1)N(O)c1ccc(Cl)cc1 | E6SM | - | KOS | >16 µg/mL |
| Nc1ncc2c(ncn2COC(CO)CO)n1 | - | - | KOS | 0.2 µg/mL |
| CC=NC(=N)c1nc(-c2cccc(C)c2)n(C/C=C/c2ccccc2)n1 | E6SM | - | KOS | >4 µg/mL |
| Nc1nc2c(ncn2[C@H]2CO[C@@H](CO)C2)c(=O)[nH]1 | E6SM | - | KOS | 2 µg/mL |
| C=C(N=CC)c1nc(-c2cccc(C)c2)n(C2O[C@H](CO)[C@@H](O)[C@H](O)[C@H]2O)n1 | E6SM | - | KOS | 300 µg/mL |
| CCCCCCCC/C=C/CCCCCCCC(=O)OCC(CO)OCn1cnc2c(=O)[nH]c(N)nc21 | HEL | - | HU-5 | 0.0005 µM |
| O=c1[nH]c(=O)n([C@H]2C[C@H](O)[C@@H](CO)O2)cc1I | E6SM | - | KOS | 0.1 µg/mL |
| Nc1nc(Cl)c2ncn([C@H]3CO[C@@H](CO)C3)c2n1 | E6SM | - | VMW1837 (TK-) | 300 µg/mL |
| CCc1cn([C@H]2C[C@H](O)[C@@H](CO)O2)c(=O)[nH]c1=O | Primary rabbit kidney cells | - | LYONS | 2 µg/mL |
| CC1(C)[C@@H](CCO)C[C@H]1n1cnc2c(=O)[nH]c(N)nc21 | E6SM | - | TK-/VMW 1837 | >400 µg/mL |
| C[C@H]1[C@H](O)[C@@H](CO)O[C@H]1n1cc(I)c(=O)[nH]c1=O | RPMI8226 | - | Hangai | 0.16 µg/mL |
| CC(Sc1ncnc2c1cnn2COCC(O)CO)C(N)=O | E6SM | - | VWM1837 (TK-) | >400 µg/mL |
| O=c1[nH]c(=O)n([C@H]2C[C@H](O)[C@@H](CO)O2)cc1C(O)C(Cl)I | HFF | - | E-377 | 6.9 µM |
| CCc1cn([C@H]2C[C@H](O)[C@@H](CO)O2)c(=O)[nH]c1=O | PRK | - | VMW1837 (TK-) | >400 µg/mL |
| CCCCCCCC/C=C/CCCCCCCC(=O)O | HEL | - | KOS | >100 µM |
| Cc1cn([C@@H]2OC[C@H](CO)[C@H]2O)c(=O)[nH]c1=O | E6SM | - | KOS TK- acyclovir-resistant | 240 µg/mL |

A second listing of 6 rows from above:

compound	cell line	mutations	strain	result
COC(CI)c1cc([C@H]2C[C@H](O)[C@@H](CO)O2)c(F)cc1F	E6SM	-	VMW 1837	>80 µg/mL
O=c1ccn(C2CC(O[N+](=O)[O-])C(CO)O2)c(=O)[nH]1	E6SM	-	KOS ACV-R (TK-)	>400 µg/mL
Cc1cn([C@@H]2OC[C@H](CO)[C@H]2N=[N+]=[N-])c(=O)[nH]c1=O	E6SM	-	KOS	>80 µg/mL
[N-]=[N+]=Nc1cccc(/C=C/c2cn([C@H]3C[C@H](O)[C@@H](COP(=O)(O)O)O3)c(=O)[nH]c2=O)c1	PRK	-	F	>200 µg/mL
Nc1nc2c(ncn2[C@H]2CO[C@@H](CO)C2)c(=O)[nH]1	E6SM	-	KOS	2 µg/mL
O=c1[nH]c(=O)n([C@H]2C[C@H](O)[C@@H](CO)O2)cc1C(O)C(Br)Br	HFF	-	E-377	3.9 µM